Experimental data as given in patent US20040116523A1, “Use of c4-c10 acids for preventing gram-negative bacterial infections” (priority 2000, published 2004).

Test system: Salmonella
Assay: Fatty acid substrate for Salmonella

## CCCCCC(=O)O [Caproic acid]
  Fatty acid substrate for Salmonella: No

## CCCCC(=O)O [Valeric acid]
  Fatty acid substrate for Salmonella: No

## CCCCCCC(O)C(=O)O (stereo not drawn) [2-Hydroxycaprylic acid]
  Fatty acid substrate for Salmonella: No

## O=C(O)CCCCCCCO [8-Hydroxycaprylic acid]
  Fatty acid substrate for Salmonella: No

## CCCC(=O)O [Butyric acid]
  Fatty acid substrate for Salmonella: No

## CC(=O)O [Acetic acid]
  Fatty acid substrate for Salmonella: Yes

## CCCCCCC(=O)O [Oenanthic acid]
  Fatty acid substrate for Salmonella: No

## NCCCCCCCC(=O)O [8-Aminocaprylic acid]
  Fatty acid substrate for Salmonella: No

## CCCCCCC(N)C(=O)O (stereo not drawn) [2-Aminocaprylic acid]
  Fatty acid substrate for Salmonella: No

## CCC(=O)O [Propionic acid]
  Fatty acid substrate for Salmonella: Yes

## CCCCCCCCC(=O)O [Pelargonic acid]
  Fatty acid substrate for Salmonella: No

## CCCCCCCC(=O)[O-].[Na+] [sodium caprylate]
  Fatty acid substrate for Salmonella: No
